Measured values from several laboratories, pooled; numbers as filed in NIAID ChemDB.

All rows: growth or infection tests; organism: Candida albicans; read-out: MIC

Lines come from different laboratories, so protocols vary. An empty or dashed field is not shown.

smiles,strain or isolate,result
C[C@H](n1nnnc1CCN1CCN(c2ccccn2)CC1)[C@](O)(Cn1cncn1)c1ccc(F)cc1F,V-01-191A-261 (resistant),8 µg/mL
CC1C=C(c2ccc(Cl)cc2Cl)C(=O)O1,ATCC 44859,31.25 µM
O=S(=O)(NC(=S)Nc1ccccc1)c1ccc(N2N=C(c3ccc(Br)cc3)CC2c2ccccc2)cc1,ATCC 2091,12.5 µg/mL
O=[N+]([O-])c1ccc(N2CCN(CCc3nnnn3CC(O)(Cn3cncn3)c3ccc(F)cc3F)CC2)cc1,-,4 µg/mL
CCC(C)n1ncn(-c2ccc(N3CCN(c4ccc(OC[C@H]5CO[C@](Cn6cncn6)(c6ccc(Cl)cc6Cl)O5)cc4)CC3)cc2)c1=O,ATCC 24433,0.12 µg/mL
C[C@H](n1nnnc1CCN1CCN(c2ccc([N+](=O)[O-])cc2)CC1)[C@](O)(Cn1cncn1)c1ccc(F)cc1F,V-01-191A-261 (resistant),2 µg/mL
CCCCCC1C=C(c2ccc(Cl)c(Cl)c2)C(=O)O1,ATCC 44859,>125 µM
O=C([O-])c1cccc(C(=O)[O-])n1.c1cnc2c(c1)ccc1ccc[nH+]c12.c1cnc2c(c1)ccc1ccc[nH+]c12,ATCC 10231,200 µg/mL
CC1C=C(c2ccc(Cl)c(Cl)c2)C(=O)O1,ATCC 44859,>125 µM
CC(n1nccn1)C(O)(Cn1cncn1)c1ccc(OC(F)(F)F)cc1,TA,>100 µg/mL
COC(=O)[C@H]1O[C@@H](n2cnc3c(N)ncnc32)[C@H](O)[C@@H]1NC(=O)[C@@H](N)Cc1ccc(OC)cc1,FP633,>100 µg/mL
CC1(C)CC(=O)c2cc(C3CC(c4ccc(Br)cc4)=NN3C(N)=S)[nH]c2C1,ATCC 2091,200 µg/mL
Nc1ncnc2c1ncn2[C@@H]1O[C@H](C(=O)O)[C@@H](NC(=O)C(N)Cc2ccc([N+](=O)[O-])cc2)[C@H]1O,FP633,50 µg/mL
CC(n1nccn1)C(O)(Cn1cncn1)c1ccc(F)cc1,TA,50 µg/mL
CCCCCCCCOc1ccc(N2CCN(c3ccc(C(=O)N[C@H]4CCCNC(=O)C5C[C@H](N)CN5C(=O)C(C(C)O)NC(=O)C(CCc5ccc(O)cc5)NC(=O)C5C[C@@H](O)CN5C(=O)C(C(C)O)NC4=O)cc3)CC2)cc1,ATCC 62376,0.39 µg/mL
COc1cc(O)c2c(c1)C(=O)c1c(cc3c(c1O)-c1c(cc(C)c(C(=O)NC(CO)C(=O)O)c1O)[C@H](OC1OC(C)C(O)C(OC4OCC(O)C(O)C4O)C1O)C3O)C2=O,A25942 (amphotericin B-resistant),4 µg/mL
Nc1ncnc2c1ncn2[C@@H]1O[C@H](C(=O)O)[C@@H](NC(=O)[C@H](O)c2ccccc2)[C@H]1O,FP633,>100 µg/mL
CN(Cc1cccc2ccccc12)/N=C\C#CC(C)(C)C,-,>64 µg/mL
Nc1ncnc2c1ncn2[C@@H]1O[C@H](C(=O)O)[C@@H](NC(=O)[C@@H](N)Cc2ccccc2)[C@H]1O,FP633,3.1 µg/mL
CN(Cc1cccc2ccccc12)/N=C\c1ccc(Cl)cc1,-,>64 µg/mL
COc1ccccc1N1CCN(CCc2nnn(CC(O)(Cn3cncn3)c3ccc(F)cc3F)n2)CC1,V-01-191A-261 (resistant),8 µg/mL
CCCCCOc1ccc(-c2ccc(-c3ccc(C(=O)N[C@H]4CCCNC(=O)[C@@H]5C[C@H](N)CN5C(=O)[C@H](CC)NC(=O)C(CCc5ccc(O)cc5)NC(=O)[C@@H]5C[C@@H](O)CN5C(=O)[C@H]([C@@H](C)O)NC4=O)cc3)cc2)cc1,ATCC 62376,0.1 µg/mL
CC1C=C(c2cc3ccccc3n2C)C(=O)O1,ATCC 44859,>125 µM
CC(n1nccn1)C(O)(Cn1cncn1)c1ccccc1F,TA,100 µg/mL
CN(Cc1cccc2ccsc12)/N=C\c1ccc(C(C)(C)c2ccccc2)cc1,-,>64 µg/mL
NNc1nnc2c(n1)Nc1ccccc1C2,ATCC 2091,200 µg/mL
C[C@H](n1ccnn1)[C@@](O)(Cn1cncn1)c1ccccc1F,TA,>100 µg/mL
C[C@H](n1nnnc1CCN1CCN(c2ccccc2Cl)CC1)[C@](O)(Cn1cncn1)c1ccc(F)cc1F,V-01-191A-261 (resistant),8 µg/mL
CCCCCOc1ccc(-c2ccc(-c3ccc(C(=O)N[C@H]4CCCNC(=O)C5C[C@H](NC(=O)C[N+](C)(C)C)CN5C(=O)C(C(C)O)NC(=O)C(CCc5ccc(O)cc5)NC(=O)C5C[C@@H](O)CN5C(=O)C(C(C)O)NC4=O)cc3)cc2)cc1,ATCC 62376,1.56 µg/mL
Nc1ncnc2c1ncn2[C@@H]1O[C@H](C(=O)O)[C@@H](NC(=O)C(N)CSCc2ccc(O)cc2)[C@H]1O,FP633,0.2 µg/mL
CC(/C=C/C=C(\C)C(O)C(C)C(=O)O[C@H]1C[C@@H](C)C=C2C=C[C@]3(C)O[C@@H](O)CC(=O)[C@]3(C)[C@H]21)=C\C=C\C(=O)O,AC3411,0.78 µg/mL
COc1ccc(C2=CC(c3ccc(S(N)(=O)=O)cc3)C(c3ccccc3)C2Br)cc1,ATCC 2091,200 µg/mL
CN(Cc1cccc2ccccc12)/N=C\c1ccccc1Cl,-,>64 µg/mL
CCCCCCCCOc1ccc(N2CCN(c3ccc(C(=O)N[C@H]4CCCNC(=O)C5C[C@H](N)CN5C(=O)C(C(C)O)NC(=O)C(Cc5ccc(CO)cc5)NC(=O)C5CCCN5C(=O)C(C(C)O)NC4=O)cc3)CC2)cc1,ATCC 10231,1.56 µg/mL
CS(=O)CC[C@H](N)C(=O)N[C@H]1[C@@H](O)[C@H](n2cnc3c(N)ncnc32)O[C@@H]1C(=O)O,FP633,>100 µg/mL
OC(Cn1cncn1)(Cn1nnc(CCN2CCN(c3ccccc3Cl)CC2)n1)c1ccc(F)cc1F,V-01-191A-261 (resistant),4 µg/mL
CCCCCOc1ccc(-c2ccc(-c3ccc(C(=O)N[C@H]4CCCNC(=O)C5C[C@H](NC6CCNCC6)CN5C(=O)C(C(C)O)NC(=O)C(CCc5ccc(O)cc5)NC(=O)C5C[C@@H](O)CN5C(=O)C(C(C)O)NC4=O)cc3)cc2)cc1,ATCC 10231,0.39 µg/mL
C[C@H](n1nnc(CCN2CCN(c3ccccn3)CC2)n1)[C@](O)(Cn1cncn1)c1ccc(F)cc1F,V-01-191A-261 (resistant),8 µg/mL
CCCCCCCCOc1ccc(-c2ccc(-c3ccc(CN[C@H]4CCCNC(=O)C5C[C@H](N)CN5C(=O)C(C(C)O)NC(=O)C(CCc5ccc(O)cc5)NC(=O)C5C[C@@H](O)CN5C(=O)C(C(C)O)NC4=O)cc3)cc2)cc1,ATCC 10231,0.2 µg/mL
CCCCOc1ccccc1N1CCN(CCc2nnn(CC(O)(Cn3cncn3)c3ccc(F)cc3F)n2)CC1,V-01-191A-261 (resistant),2 µg/mL
CN(Cc1cccc2ccccc12)/N=C\c1ccc(C(C)(C)C)cc1,-,>64 µg/mL
CC(n1cnnn1)C(O)(Cn1cncn1)c1ccc(Cl)cc1,TA,>100 µg/mL

The last 4 rows once more:

{"smiles": "CCCCCCCCOc1ccc(-c2ccc(-c3ccc(CN[C@H]4CCCNC(=O)C5C[C@H](N)CN5C(=O)C(C(C)O)NC(=O)C(CCc5ccc(O)cc5)NC(=O)C5C[C@@H](O)CN5C(=O)C(C(C)O)NC4=O)cc3)cc2)cc1", "strain or isolate": "ATCC 10231", "result": "0.2 µg/mL"}
{"smiles": "CCCCOc1ccccc1N1CCN(CCc2nnn(CC(O)(Cn3cncn3)c3ccc(F)cc3F)n2)CC1", "strain or isolate": "V-01-191A-261 (resistant)", "result": "2 µg/mL"}
{"smiles": "CN(Cc1cccc2ccccc12)/N=C\\c1ccc(C(C)(C)C)cc1", "result": ">64 µg/mL"}
{"smiles": "CC(n1cnnn1)C(O)(Cn1cncn1)c1ccc(Cl)cc1", "strain or isolate": "TA", "result": ">100 µg/mL"}